The experiment deals with receptor for App on Chang conjunctiva epithelial cells (proteinaceous, not identified) (human). The experiment in a line: cell-based or functional assay.

“App of N. meningitidis strain MC58 (native, on the bacteria)” showed a reduction of association of the MC58Δapp knockout with Chang cells against the wild type strain of 10 fold.

(Values after patent US20140294884A1 (Novartis, published 2014).)
